A mixed list of measured activities; the numbers were collected in NIAID ChemDB.

All rows: whole-cell or culture tests; organism: Mycobacterium fortuitum; endpoint: MIC90

Two numbers with a dash give a range or band. A number after MIC or MFC names an inhibition level or a share of isolates. Neighbouring rows are from separate reports.

CO[C@H]1/C=C/O[C@@]2(C)Oc3c(C)c(O)c4c(O)c(c(/C=N/N5CCN(C)CC5)c(O)c4c3C2=O)NC(=O)/C(C)=C\C=C\[C@H](C)[C@H](O)[C@@H](C)[C@@H](O)[C@@H](C)[C@H](OC(C)=O)[C@@H]1C ; strain or isolate: 20 strains ; result: 100 µg/mL
NC[C@H]1O[C@H](O[C@H]2[C@H](O)[C@@H](O[C@H]3O[C@H](CO)[C@@H](O)[C@H](N)[C@H]3O)[C@H](N)C[C@@H]2N)[C@H](N)C[C@@H]1O ; strain or isolate: 18 strains ; result: 32 µg/mL
CC[C@@H](C)N1CCN(c2cc(=O)c3nc4c(oc3c2)c2c(=O)c3c(O)c(C)c5c(c34)=C(O)[C@@](C)(O/C=C/[C@H](OC)[C@@H](C)[C@@H](OC(C)=O)[C@H](C)[C@H](O)[C@H](C)[C@@H](O)[C@@H](C)/C=C/C=C(/C)C(=O)N2)O5)CC1 ; strain or isolate: 20 strains ; result: >100 µg/mL
CO[C@@H]1[C@@H](O[C@@H]2O[C@H](C)[C@@H](O[C@H]3C[C@@](C)(O)[C@@H](OC(=O)CC(C)C)[C@H](C)O3)[C@H](N(C)C)[C@H]2O)[C@@H](CC=O)C[C@@H](C)[C@@H](O)/C=C/C=C/C[C@@H](C)OC(=O)C[C@H]1OC(C)=O ; strain or isolate: 48 strains ; result: >64 µg/mL
CNn1cc(C(=O)O)c(=O)c2cc(F)c(N3CCN(C)CC3)cc21 ; strain or isolate: 19 strains ; result: 2 µg/mL
CCCN1CCN(c2cc(=O)c3nc4c(oc3c2)c2c(=O)c3c(O)c(C)c5c(c34)=C(O)[C@@](C)(O/C=C/[C@H](OC)[C@@H](C)[C@@H](OC(C)=O)[C@H](C)[C@H](O)[C@H](C)[C@@H](O)[C@@H](C)/C=C/C=C(/C)C(=O)N2)O5)CC1 ; strain or isolate: 20 strains ; result: >100 µg/mL
C[C@H]1NCc2cc(-c3ccc4c(=O)c(C(=O)O)cn(C5CC5)c4c3OC(F)F)ccc21 ; strain or isolate: 10 strains ; result: 0.25 µg/mL
CC1COc2c(N3CCN(C)CC3)c(F)cc3c(=O)c(C(=O)O)cn1c23 ; result: 0.4–1.2 µg/mL
CN[C@@H]1[C@@H](O)[C@@H](O[C@@H]2[C@@H](O)[C@H](O[C@H]3O[C@H](CN)CC[C@H]3N)[C@@H](N)C[C@H]2N)OC[C@]1(C)O ; strain or isolate: 18 strains ; result: 16 µg/mL
CCNCC1CCN(c2c(F)cc3c(=O)c(C(=O)O)cn(CC)c3c2F)C1 ; strain or isolate: 19 strains ; result: 2 µg/mL
CCn1cc(C(=O)O)c(=O)c2cc(F)c(N3CCNCC3)cc21 ; strain or isolate: 80 strains ; result: 4 µg/mL
CC1CN(c2cc3c(cc2F)c(=O)c(C(=O)O)cn3-c2ccc(F)cc2F)CCN1 ; strain or isolate: 19 strains ; result: 0.5 µg/mL
CO[C@@]1(NC(=O)Cc2cccs2)C(=O)N2C(C(=O)O)=C(COC(N)=O)CS[C@@H]21 ; strain or isolate: 18 strains ; result: ≥64 µg/mL
CC[C@H]1OC(=O)[C@H](C)[C@@H](O[C@H]2C[C@@](C)(OC)[C@@H](O)[C@H](C)O2)[C@H](C)[C@@H](O[C@@H]2O[C@H](C)C[C@H](N(C)C)[C@H]2O)[C@](C)(O)C[C@@H](C)CN(C)[C@H](C)[C@@H](O)[C@]1(C)O ; strain or isolate: 48 strains ; result: >64 µg/mL
CCn1cc(C(=O)O)c(=O)c2cc(F)c(-n3cccc3)cc21 ; strain or isolate: 19 strains ; result: 64 µg/mL

2 of the rows above, restated:

smiles | strain or isolate | result
CNn1cc(C(=O)O)c(=O)c2cc(F)c(N3CCN(C)CC3)cc21 | 19 strains | 2 µg/mL
CCNCC1CCN(c2c(F)cc3c(=O)c(C(=O)O)cn(CC)c3c2F)C1 | 19 strains | 2 µg/mL